Data taken from ChEMBL document CHEMBL3988442, “University of Dundee, Small-Polar-MMV Screening Library” (2021).

A: 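Phenotypic screen: M. tuberculosis growth, glucose 7H9 medium, 3 days; the read-out is not stated. Concentration: 500 µM. Higher reads as more growth inhibition (inferred: compounds with an IC50 in retests scored well above the rest). About 18,000 compounds were tested under these conditions; 7.9% (about 1,400) showed 50% or more at least once.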
B: 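Phenotypic screen: M. tuberculosis growth, cholesterol and DPPC medium, 4 days; the read-out is not stated. Compounds at 500 µM. The record gives no direction; compounds that gave an IC50 in retests scored well above the rest, so higher reads as more growth inhibition. Size under these conditions: about 18,000 compounds, about 900 of them at 50% or above in at least one test.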

Each number is a percent effect as filed. The record does not define 0% and 100%; most values in the screen are far below 50% and negative numbers occur (in some assays of this library far below -100). The entries come from a sample that favours strong results. A dash means the value is not listed here; it may have been measured.

compound	A	B
CC(C)(C)c1nc(CN2CC[C@H](CO)[C@H](O)C2)no1	-1.498	-
N#Cc1ncn(CCOCC2CC2)c1C#N	-	2.6
CNc1cc(-c2cccc(OC)c2)[nH]n1	5.582	-2.59
C=C(C)CN1CCN(c2nccs2)CC1	-	12.41
NCc1noc(-c2ccc3c(c2)OCO3)n1	15.78	23.09
Cc1noc(CCNC(=O)NCCc2ccccn2)n1	-	-1.735
CC1=CCN(Cc2cccc(OCC(N)=O)c2)CC1	-23.83	-
CN(C)S(=O)(=O)CCCS(=O)(=O)Cc1cccc(F)c1	4.11	-
NC1CCN(C(=O)c2cccnc2)C1 (stereo not shown)	6.813	-
O=S(=O)(c1ccc(O)cc1)N1CCCCC1	-	40.77
CCN(CCn1cccn1)C(=O)c1c(O)cccc1O	-	2.488
CC(C)CC(=O)NCC(O)c1ccccc1F (stereo not shown)	2.597	-
CC(C)c1ccc(-c2nnn(CC(=O)N(C)C)n2)cc1	2.983	-8.704
COCC(O)CN(C)Cc1c(C)cccc1C (stereo not shown)	15.01	21.49
CN(C)S(=O)(=O)c1ccc(C(=O)Nc2nncs2)o1	9.163	-
O=S1(=O)CCN(Cc2nccn2C2CC2)CC1	-10.59	-
OCC(O)CNc1ncc(-c2ccccc2)s1 (stereo not shown)	31.44	17.17
COc1c(CC(O)CO)cc2c(c1OC)OCO2 (stereo not shown)	13.04	-
CC[C@H](N)C(=O)N(C)Cc1cccc(OC(F)(F)F)c1	66.98	-
CCN1CCN(CC(=O)Nc2cc(C)ccc2C)CC1	19.28	-
O=C(CN(CC1CCOC1)C1CC1)NC1CC1 (stereo not shown)	0.002987	-
O=C(CCc1ccccn1)Nc1ccc2[nH]nnc2c1	6.956	-
Cc1nc(CCNC(=O)C2CNCCO2)sc1C (stereo not shown)	-2.639	-
CO[C@H]1CNCC1NC(=O)c1sc(C)nc1C (stereo partly shown)	-19.08	-
Cn1ncc(N2CCCO2)c(Cl)c1=O	2.498	-
COc1ccnc(NCc2ccc3c(c2)OCCO3)n1	14.74	-
O=C1OCCC1Sc1nnc(Nc2ccccc2)s1 (stereo not shown)	54.16	-
COc1ccc(CC(=O)N2CCNCC2)cc1	7.064	-
COCCN(C)CCNC(=O)c1ccc(Cl)cc1	51.78	-
CN(C)CCN(C)S(N)(=O)=O	11.34	-
CN(C)c1ncc(CNC(=O)C2CC2)n1C	-	19.35
COCCN(Cc1ccco1)S(=O)(=O)CCOC	12.21	-17.95
CCCNC(=O)c1ccc2c(c1)CC(=O)N2C	12.65	-
CCSc1ccc(NC(=O)NCCN(C)C)cn1	-18.76	-
CCc1sc(C(=O)OCC(=O)N2CCNC2=O)cc1C	-0.5041	-
NC1CCCN(c2ccncn2)C1 (stereo not shown)	-6.875	-
O=C(NC1CCCC1)c1cnccn1	-	0.4239
O=C(c1n[nH]c(=O)c2ccccc12)N1CCCCC1	7.78	-
Cn1c(C(=O)OCCCC(N)=O)cc2ccccc21	-11.89	-
Cc1noc(C)c1CC(=O)N1CCN(S(C)(=O)=O)CC1	-0.1094	-
Cc1nc(C(=O)NCCc2nncn2C(C)C)cs1	10.56	-
NCCC(=O)N1CCC2(CC1)NCCc1nc[nH]c12	-5.259	-
CCOCCN1CCN(CC)[C@@H]2CS(=O)(=O)C[C@@H]21	7.679	-
c1cn2c(n1)CCC2	6.831	-
CN1CCN(S(=O)(=O)N2CCCC2)Cc2ccccc21	67.99	54.84
CCC1CN(CCCOC)CCN1CCOC (stereo not shown)	-	-6.99
CC(C#N)N1CCC(CNS(C)(=O)=O)CC1 (stereo not shown)	4.528	-
Cc1ccc(CNCCCOc2ccccn2)o1	41.35	44.11
CCN1CCN(C(C)CNC(=O)Cn2cnnn2)CC1 (stereo not shown)	74.22	73.31
O=c1[nH]c(-c2ccncc2)nc2c1CCC2	-8.989	-
NC1CCC(F)(F)CC1	-	-2.74
COC1CCN(C(=O)Cc2ccc(N(C)C)cc2)C1 (stereo not shown)	56.98	58.7
NCc1noc(-c2ccsc2)n1	-8.447	-13.93
CSC1(CN)CCOCC1	-	8.795
Cc1nc(N)sc1C(=O)NC(c1cccnc1)C(C)C (stereo not shown)	14.18	-
CCn1cnc2ccc(C(=O)NC3CC3)cc2c1=O	9.49	-
CC1(C)Oc2ccc(CN)cc2O1	-	-2.462
OC(Cc1ccccc1)C1CCNCC1 (stereo not shown)	-	-7.945
CC1CCN(c2ccc(N)cn2)CC1	-	8.153
COc1cccc(Nc2ccc(N)nc2)c1	73.49	78.88
Oc1ccnc(C2CCC2)n1	-6.819	-
CC(C)CC1C(=O)NCCN1C(=O)C1CCOCC1 (stereo not shown)	-	-16.34
CCCN(C)C(=O)c1cc(CN2CCOCC2)on1	-	-4.778
NC1CN(c2ccncn2)C1	-	8.447
CNC(=O)NC(=O)CSc1ccccn1	6.619	48.43

6 of the entries, repeated:

Result for O=C(CCc1ccccn1)Nc1ccc2[nH]nnc2c1 was A: 6.956%.
Result for Cc1nc(CCNC(=O)C2CNCCO2)sc1C (stereo not shown) was A: -2.639%.
Result for O=S(=O)(c1ccc(O)cc1)N1CCCCC1 was B: 40.77%.
Result for COCC(O)CN(C)Cc1c(C)cccc1C (stereo not shown) was A: 15.01%; B: 21.49%.
Result for N#Cc1ncn(CCOCC2CC2)c1C#N was B: 2.6%.
Result for Oc1ccnc(C2CCC2)n1 was A: -6.819%.